Pooled drug test results. Numbers come from NIAID ChemDB, via PubChem.

All rows: whole-cell or culture tests; species: Herpes simplex virus 1; endpoint: MIC

An empty or dashed field is not shown.

{"structure": "O=c1[nH][se]c2ncccc12", "value": "0.4 µg/mL"}
{"structure": "CC(C)[C@H](NC(=O)CN)C(=O)OCCOCn1cnc2c(=O)[nH]c(N)nc21", "strain or isolate": "KOS", "value": "2.9 µM"}
{"structure": "CCCNC(=O)Nc1ccccc1[Se][Se]c1ccccc1NC(=O)NCCC", "value": ">1000 µg/mL"}
{"structure": "CC(C)[C@H](N)C(=O)N[C@H](C(=O)OCCOCn1cnc2c(=O)[nH]c(N)nc21)C(C)C", "strain or isolate": "KOS", "value": "2.9 µM"}
{"structure": "O=c1c2ccccc2[se]n1-c1ccccc1", "value": "2 µg/mL"}
{"structure": "Nc1ncnc2c1ncn2CCOCP(=O)(O)O", "strain or isolate": "TK-", "value": "7 µg/mL"}
{"structure": "CCCn1[se]c2ncccc2c1=O", "value": "0.4 µg/mL"}
{"structure": "O=C(CCC[Se][Se]CCCC(=O)Nc1ccc(S(=O)(=O)N2CCCCC2)cc1)Nc1ccc(S(=O)(=O)N2CCCCC2)cc1", "value": ">1000 µg/mL"}
{"structure": "CC(C)[C@H](NC(=O)[C@H](C)N)C(=O)OCCOCn1cnc2c(=O)[nH]c(N)nc21", "strain or isolate": "KOS", "value": "1.3 µM"}
{"structure": "O=c1c2cccnc2[se]n1N(c1ccccc1)c1ccccc1", "value": "1 µg/mL"}
{"structure": "Cc1ccc(S(=O)(=O)Nc2ccccc2[Se][Se]c2ccccc2NS(=O)(=O)c2ccc(C)cc2)cc1", "value": "600 µg/mL"}
{"structure": "CC(C)[C@H](NC(=O)[C@@H](N)Cc1ccccc1)C(=O)OCCOCn1cnc2c(=O)[nH]c(N)nc21", "strain or isolate": "KOS", "value": "2.9 µM"}
{"structure": "Nc1ncnc2c1ncn2[C@@H]1C=C(CO)[C@@H](O)[C@H]1O", "strain or isolate": "KOS", "value": "7 µg/mL"}
{"structure": "C[C@H](NC(=O)CN)C(=O)OCCOCn1cnc2c(=O)[nH]c(N)nc21", "strain or isolate": "KOS", "value": "0.96 µM"}
{"structure": "O=c1c2ccccc2[se]n1-c1ccccc1", "value": "4 µg/mL"}
{"structure": "Nc1ccccc1[Se][Se]c1ccccc1N", "value": "40 µg/mL"}
{"structure": "Nc1nc(N)c2ncn(CCOCP(=O)(O)O)c2n1", "strain or isolate": "TK-", "value": "1 µg/mL"}
{"structure": "O=c1c2cccnc2[se]n1-c1ccccc1", "value": "0.6 µg/mL"}

A second listing of 2 rows from above:

| structure | strain or isolate | value |
|---|---|---|
| CCCn1[se]c2ncccc2c1=O | - | 0.4 µg/mL |
| CC(C)[C@H](NC(=O)CN)C(=O)OCCOCn1cnc2c(=O)[nH]c(N)nc21 | KOS | 2.9 µM |

Neighbouring rows are from separate reports.